Measured values from several laboratories, pooled; numbers as filed in NIAID ChemDB.

All rows: tests in culture; agent: HIV-1; cell line: PBMC; read-out: EC50

Blank or dashed fields: not listed here.

structure,strain,changes,read by,value
CCO/N=C(\c1ccc(Br)cc1)C1CCN(C2(C)CCN(C(=O)c3c(C)cc[n+]([O-])c3C)CC2)CC1,RU570 Clinical isolates,,,<0.4 µM
C[C@@H]1O[C@@H]2OCCC[C@@H]2[C@@H]1OC(=O)N[C@@H](Cc1ccccc1)[C@H](O)CN1C[C@H]2CCCC[C@H]2C[C@H]1C(=O)NC(C)(C)C,TM,PR-L10I K14R R41K M46I I54V L63P A71V V82A L90M I93L,p24,>1 µM
O=c1[nH]cnc2c1ncn2[C@H]1CC[C@@H](CO)O1,BCF01,RT-A98G K103R Y181C,,<0.125 µM
O=c1[nH]cnc2c1ncn2[C@H]1CC[C@@H](CO)O1,8791 CLADE A CLADE A,,p24,1.42 µM
Nc1ncnc2c1ncn2[C@@H]1CC[C@H](CO)O1,LAV,,RT activity,>10 µM
Cc1cc(C)c(Nc2ccnc(Nc3ccc(C#N)cc3)n2)c(C)c1,92UG029,,absorbance,0.0029 µM
Cc1csc(NC(=S)NC[C@H](C)c2ccccc2)n1,NNRTI-resistant (RT Y181C K103N) A17V,RT-Y181C K103N,p24,1.1 µM
C[C@H]1O[C@@H]2OCCC[C@@H]2[C@@H]1OC(=O)N[C@@H](Cc1ccccc1)[C@H](O)CN1C[C@H]2CCCC[C@H]2C[C@H]1C(=O)NC(C)(C)C,PR-L63P ERS104pre,,p24,0.033 µM
CCC(=O)c1ccc(F)c([C@@H]2C[C@@H]2NC(=O)Nc2ccc(C#N)cn2)c1O,96USNG31,,absorbance,0.0011 µM
Cc1csc(NC(=S)N[C@H](C)c2ccccc2)n1,NNRTI-resistant (RT Y181C K103N) A17V,RT-Y181C K103N,p24,0.196 µM
Cc1cccc(C)c1OCC(=O)N[C@@H](Cc1ccccc1)[C@@H](O)C[C@H](Cc1ccccc1)NC(=O)[C@H](C(C)C)N1CCCNC1=O,92UG029,,p24 / luminescence,0.027 µM
C[C@@H](CNC(=S)Nc1ccccn1)c1ccccc1,IIIB,,p24,0.028 µM
Cc1cn([C@@H]2C=C[C@H](CO)O2)c(=O)[nH]c1=O,LAV,,RT activity,>100 µM
Cc1ccnc2c1NC(=O)c1cccnc1N2C1CC1,ROJO(SI),,RT activity,0.3 µM
CC(C)Nc1cccnc1N1CCN(C(=O)c2cc3cc(NS(C)(=O)=O)ccc3[nH]2)CC1,NRTI resistant (RT Y181C K103N) A17 variant,RT-Y181C K103N,p24,>100 µM
Cc1cn([C@@H]2CC[C@H](CO)O2)c(=O)[nH]c1=O,LAV,,RT activity,>100 µM
C[C@@H](CNC(=S)Nc1ccccn1)C1CCCCC1,IIIB,,p24,>1 µM
COC(=O)[C@H](C)NP(=O)(OC[C@@H]1C=C[C@H](n2cc(C)c(=O)[nH]c2=O)O1)Oc1ccc(Br)cc1,S159-2 NNRTI-resistant clinical isolate,RT-K103N,p24,<0.0001 µM
Cc1cn([C@H]2C[C@H](N=[N+]=[N-])[C@@H](CO)O2)c(=O)[nH]c1=O,M011190,,p24,0.04 µM
CC(C)(C)NC(=O)[C@@H]1C[C@@H]2CCCC[C@@H]2CN1C[C@@H](O)[C@H](Cc1ccccc1)NC(=O)[C@H](CC(N)=O)NC(=O)c1ccc2ccccc2n1,LAI Laboratory isolate,,p24,0.011 µM
Nc1nc(=O)n([C@@H]2C[C@@H](F)[C@H](CO)O2)cc1F,LAV,,RT activity,>100 µM
COc1ccc(S(=O)(=O)N(CC(C)C)C[C@@H](O)[C@H](Cc2ccccc2)NC(=O)O[C@H]2CO[C@H]3OCC[C@H]32)cc1,Clinical isolate,PR-L10R N37D M46I I62V L63P A71V G73S V77I V82T L90M I93L,p24,0.001 µM
Cc1csc(NC(=S)N[C@H](C)c2cccc3ccccc23)n1,NNRTI-resistant (RT Y181C) A17,RT-Y181C,p24,0.145 µM
CC(C)CN(C[C@@H](O)[C@H](Cc1ccccc1)NC(=O)O[C@@H]1[C@@H]2CCCO[C@@H]2O[C@H]1C)S(=O)(=O)c1ccc(N)cc1,MM,PR-L10I K43T M46I I54V L63P A71V V82A L90M Q92K,p24,0.1 µM
CC(C)c1nc(CN(C)C(=O)N[C@H](C(=O)N[C@@H](Cc2ccccc2)C[C@H](O)[C@H](Cc2ccccc2)NC(=O)OCc2cncs2)C(C)C)cs1,Clinical isolate,PR-L10I I15V E35D N37E K45R I54V L63P A71V V82T L90M I93L C95F,p24,>1 µM
Cc1ccnc2c1NC(=O)c1cccnc1N2C1CC1,MVP5180 (RT A98G K103R),RT-A98G K103R,,0.66 µM
CCCc1cc(=O)oc2c3c(c4c(c12)OC(C)(C)C=C4)O[C@@H](C)[C@H](C)[C@@H]3O,SLKA(SI),,RT activity,0.03 µM
CC(C)CN(C[C@@H](O)[C@H](Cc1ccccc1)NC(=O)O[C@H]1CCOC1)S(=O)(=O)c1ccc(N)cc1,BaL,,p24 / luminescence,0.028 µM
Cc1cn([C@H]2C[C@H](N=[N+]=[N-])[C@@H](CO)O2)c(=O)[nH]c1=O,BCF08,RT-A98G Y181C,,<0.01 µM
Cc1cn([C@H]2C[C@H](N=[N+]=[N-])[C@@H](CO)O2)c(=O)[nH]c1=O,P798-1 Clinical isolate ZDV-resistant,RT-M41L T215Y,p24,1.8 µM
c1cc(CN2CCCNCCNCCCNCC2)ccc1CN1CCCNCCNCCCNCC1,SW7 CLADE C X4,,p24,<0.1 µM
Cc1ccc(NC(=S)NC[C@H](C)c2ccccc2)nc1,NNRTI-resistant (RT Y181C K103N) A17V,RT-Y181C K103N,p24,1.84 µM
Cc1ccnc2c1NC(=O)c1cccnc1N2C1CC1,IIIB,,p24,0.034 µM
Cc1cn([C@H]2C[C@H](N=[N+]=[N-])[C@@H](CO)O2)c(=O)[nH]c1=O,CLADE D,,RT activity,0.1 µM
C[C@@H](NC(=S)Nc1ccc(Br)cn1)c1cccc2ccccc12,IIIB,,p24,0.0015 µM
CC[C@@H](c1ccc(C(F)(F)F)cc1)N1CCN(C2(C)CCN(C(=O)c3c(C)ncnc3C)CC2)C[C@@H]1C,JV1083 Clinical isolates,,,<0.018 µM
O=c1[nH]cnc2c1ncn2[C@H]1CC[C@@H](CO)O1,LAI Laboratory isolate,,p24,0.62 µM
CCCc1cc(=O)oc2c3c(c4c(c12)OC(C)(C)C=C4)O[C@H](C)[C@@H](C)[C@@H]3O,WEJO,,RT activity,0.03 µM

Rows are shuffled and stem from different studies. ECn is the concentration giving n% inhibition of infection, replication or growth.